Experiments:
[1] = Cytotoxicity against mouse BMDM after 72 hrs by alamar blue fluorescence assay; settings: read-out: LD50
Leishmania donovani = test: Antileishmanial activity against Leishmania donovani amastigotes assessed as growth inhibition after 72 hrs by alamar blue fluorescence assay
[2] = Inhibition of Leishmania donovani N-myristoyltransferase using GSNKSKPKDASQRRR-NH2 as substrate by CPM fluorescence assay
[3] = Inhibition of Leishmania major N-myristoyltransferase using GSNKSKPKDASQRRR-NH2 as substrate by CPM fluorescence assay

| Structure (SMILES) | CC50 [1] [µM] | EC50 (Leishmania donovani) [µM] | IC50 [2] [nM] | Ki [2] [nM] | IC50 [3] [nM] |
| --- | --- | --- | --- | --- | --- |
| N[C@@H](CC(=O)N1C[C@H](CO)[C@@H](c2ccc(Cl)c(NC(=O)Cc3ccc(F)cc3)c2)C1)Cc1ccc(Cl)cc1 | 12 | 10 |  |  |  |
| N[C@@H](CC(=O)N1C[C@@H](CO)[C@H](c2ccc(Cl)cc2)C1)Cc1ccc(Cl)cc1 | 12 | 10 | 1700 | 1410 |  |
| N[C@@H](CC(=O)N1C[C@H](CO)[C@@H](c2ccc(Cl)cc2)C1)Cc1ccc(Cl)cc1 | 8 | 10 | 25 | 17 | 31 |
| O=C(Cc1ccc(F)cc1)Nc1cc([C@H]2CN(C(=O)CC(O)Cc3ccc(Cl)cc3)C[C@@H]2CO)ccc1Cl (stereo not given in full) | > 24 | 10 |  | 59 |  |
| CC(=O)Nc1cc([C@H]2CN(C(=O)C[C@H](N)Cc3ccc(Cl)cc3)C[C@@H]2CO)ccc1Cl | > 90 | > 50 |  | 110 |  |
| O=C(Cc1ccc(F)cc1)Nc1ccc2[nH]cc(C3CCNCC3)c2c1 | > 45 | > 30 |  |  | 550 |

From ChEMBL document CHEMBL3351919, “Structure-based design of potent and selective Leishmania N-myristoyltransferase inhibitors” (2014)
